Pooled drug test results. Numbers come from NIAID ChemDB, via PubChem.

Common to all: whole-cell or culture tests; agent: HIV-1; cells: MT-2; read-out: EC50

ECn: concentration that inhibits the pathogen or its effect by n%. Rows are shuffled and stem from different studies. An empty or dashed field is not shown.

{"SMILES": "CC(C)CN(C[C@@H](O)[C@H](Cc1ccccc1)NC(=O)O[C@H]1CCOC1)S(=O)(=O)c1ccc(N)cc1", "strain": "IIIB", "method": "p24 / ELISA", "value": "0.0473 µM"}
{"SMILES": "CCCCCC[C@@H]1[C@H](O)[C@@H](O)[C@@H](Cc2ccccc2)N(Cc2cccc(C(=O)Nc3nc4ccccc4[nH]3)c2)C(=O)N1Cc1cccc(C(=O)Nc2nc3ccccc3[nH]2)c1", "strain": "RF", "mutations": "PR-I84V V82F", "setting": "3 d", "value": "<0.024 µM"}
{"SMILES": "N#Cc1ccc(Nc2nc(Oc3ccc(-c4ccc(C#N)cc4)cc3[N+](=O)[O-])c3sccc3n2)cc1", "strain": "IIIB", "mutations": "Y181C", "method": "MTT", "value": "0.0551 µM"}
{"SMILES": "CCCCCCCCCCCCCCCCOCCCOP(=O)(O)COCCn1cnc2c(N)nc(N)nc21", "strain": "LAI", "method": "p24", "value": "0.000016 µM"}
{"SMILES": "CC(C)=CCOc1c2occc2cc2ccc(=O)oc12", "strain": "NL4-3 Recombinant", "method": "luciferase", "value": "<25 µM"}
{"SMILES": "C[C@H](Cn1cnc2c(N)ncnc21)OCP(=O)(O)O", "strain": "LAI", "method": "ELISA", "value": "0.68 µM"}
{"SMILES": "O=c1[nH]cnc2c1ncn2[C@H]1CC[C@@H](CO)O1", "strain": "HXB2-MT 65+68 (RT K65R S68G)", "mutations": "RT-K65R S68G", "method": "p24 / ELISA", "value": "2.4 µM"}
{"SMILES": "CC(C)C[C@@H]1[C@H](O)[C@@H](O)[C@@H](Cc2ccccc2)N(Cc2cccc(C(=O)Nc3nc4ccccc4[nH]3)c2)C(=O)N1Cc1cccc(C(=O)Nc2nc3ccccc3[nH]2)c1", "strain": "RF", "mutations": "PR-I84V", "setting": "3 d", "value": "<0.009 µM"}
{"SMILES": "Nc1nc(=O)n(CCOCP(=O)(O)O)cc1Br", "strain": "LAI", "method": "p24", "value": ">100 µM"}
{"SMILES": "Nc1ccn([C@H]2CC[C@@H](CO)O2)c(=O)n1", "strain": "IIIB", "method": "cytopathic effect / MTT", "value": "5.924 µM"}
{"SMILES": "Cc1c(O)cccc1C(=O)N[C@@H](CSc1ccccc1)[C@H](O)CN1C[C@H]2CCCC[C@H]2C[C@H]1C(=O)NC(C)(C)CO", "strain": "IIIB", "method": "cytopathic effect / MTT", "value": "0.0856 µM"}
{"SMILES": "CN1CCC2(CC1)C(=O)N(c1ccccc1)c1ccccc12", "strain": "IIIB", "method": "cytopathic effect / XTT", "value": "4.1 µM"}
{"SMILES": "Cc1cn([C@@H]2CC[C@H](CO)O2)c(=O)[nH]c1=O", "strain": "IIIB", "method": "XTT", "value": ">200 µM"}
{"SMILES": "Cc1ccc(S(=O)(=O)N(CC(C)C)C[C@@H](O)[C@H](Cc2ccccc2)NC(=O)O[C@H]2CO[C@H]3OCC[C@H]32)cc1", "strain": "IIIB", "mutations": "K112M K113E V128I M200I H219P", "method": "p24 / ELISA", "value": "0.008 µM"}
{"SMILES": "COc1ccc(S(=O)(=O)N(CC(C)C)C[C@@H](O)[C@H](Cc2ccccc2)NC(=O)O[C@H]2CCO[C@H]3OCC[C@H]32)cc1", "strain": "LAI", "method": "MTT", "value": "0.019 µM"}
{"SMILES": "CC(C)Nc1cccnc1N1CCN(C(=O)c2cc3cc(NS(C)(=O)=O)ccc3[nH]2)CC1", "strain": "IIIB", "method": "syncytia", "value": "0.01 µM"}
{"SMILES": "O=C1N(Cc2ccc3[nH]nc(N4CCCC4)c3c2)[C@H](Cc2ccccc2)[C@H](O)[C@@H](O)[C@@H](Cc2ccccc2)N1Cc1ccc2[nH]nc(N3CCCC3)c2c1", "strain": "RF", "method": "hybridisation", "value": "<0.12 µM"}
{"SMILES": "CC(C)(C)NC(=O)c1ccccc1SC[C@H](O)[C@H](Cc1ccccc1)NC(=O)[C@H](CC(N)=O)NC(=O)c1ccc2ccccc2n1", "value": "4.38 µg/mL"}
{"SMILES": "O=C1N(Cc2ccc3[nH]ncc3c2)[C@H](Cc2ccccc2)[C@H](O)[C@@H](O)[C@@H](Cc2ccccc2)N1Cc1ccc2[nH]ncc2c1", "strain": "RF", "method": "hybridisation", "value": "<0.008 µM"}
{"SMILES": "Cc1cn([C@H]2C[C@H](N=[N+]=[N-])[C@@H](CO)O2)c(=O)[nH]c1=O", "strain": "IIIB", "method": "p24 / ELISA", "value": "0.0057 µM"}
{"SMILES": "O=C(Nc1nc2ccccc2[nH]1)c1cccc(CN2C(=O)N(Cc3cccc(C(=O)Nc4nc5ccccc5[nH]4)c3)[C@H](Cc3ccc(O)cc3)[C@H](O)[C@@H](O)[C@H]2Cc2ccc(O)cc2)c1", "strain": "RF", "setting": "3 d", "value": "<0.035 µM"}
{"SMILES": "O=C(/C=C/C=C/c1ccc(Br)cc1)[Se]c1ccccc1", "strain": "LAI", "method": "MTT", "value": "6.5 µM"}
{"SMILES": "COc1ccnc2[nH]cc(C(=O)C(=O)N3CCN(C(=O)c4ccccc4)C[C@H]3C)c12", "strain": "IIIB", "method": "MTT", "value": "0.32 µM"}
{"SMILES": "CCCCC#CCSc1ccccc1OC(C)=O", "strain": "HXB2", "value": "10 µM"}
{"SMILES": "Cc1cc(-c2ccc(C#N)cc2)cc(C)c1Oc1nc(Nc2ccc(C#N)cc2)nc2ccsc12", "strain": "IIIB", "mutations": "Y181C", "method": "MTT", "value": "0.0571 µM"}
{"SMILES": "C[C@H](Cn1cnc2c(N)ncnc21)OCP(=O)(O)O", "strain": "IIIB", "method": "XTT", "value": "0.015 µM"}
{"SMILES": "CC(C)(C)NC(=O)[C@@H]1CN(Cc2cccnc2)CCN1C[C@@H](O)C[C@@H](Cc1ccccc1)C(=O)N[C@H]1c2ccccc2C[C@H]1O", "strain": "NL4-3 WT", "method": "p24", "value": "0.021 µM"}
{"SMILES": "C=C(C)[C@@H]1CC[C@]2(NCC[C@]3(O)CCC[C@H](S(C)(=O)=O)C3)CC[C@]3(C)[C@H](CC[C@@H]4[C@@]5(C)CC=C(C6=CC[C@](CF)(C(=O)O)CC6)C(C)(C)[C@@H]5CC[C@]43C)[C@@H]12", "strain": "NL4-3", "method": "luciferase", "value": "<0.05 µM"}
{"SMILES": "CCCCCCCCCCCCCCCCOCCCOP(=O)(O)COCCn1cc(F)c(=O)[nH]c1=O", "strain": "LAI", "method": "p24", "value": "24 µM"}
{"SMILES": "Nc1ncnc2c1ncn2CCOCP(=O)(O)O", "strain": "IIIB", "method": "cytopathic effect", "value": ">50 µM"}
{"SMILES": "Nc1ccn([C@H]2CC[C@@H](CO)O2)c(=O)n1", "strain": "HXB2-MT 65+68 (RT K65R S68G)", "mutations": "RT-K65R S68G", "method": "p24 / ELISA", "value": "0.44 µM"}
{"SMILES": "CNc1n[nH]c2ccc(CN3C(=O)N(Cc4ccc5[nH]nc(NC)c5c4)[C@H](Cc4ccccc4)[C@H](O)[C@@H](O)[C@H]3Cc3ccccc3)cc12", "strain": "RF", "method": "hybridisation", "value": "<0.279 µM"}
{"SMILES": "CN(C)c1ccc(C[C@@H]2[C@H](O)[C@@H](O)[C@@H](Cc3ccc(N(C)C)cc3)N(Cc3cccc(C(=O)Nc4nc5ccccc5[nH]4)c3)C(=O)N2Cc2cccc(C(=O)Nc3nc4ccccc4[nH]3)c2)cc1", "strain": "RF", "mutations": "PR-I84V", "setting": "3 d", "value": "<0.008 µM"}
{"SMILES": "COc1cc(C[C@@]2(O)C(=O)OC[C@@H]2Cc2ccc(OC)c(OC)c2)ccc1O", "strain": "IIIB", "method": "XTT", "value": "0.2 µg/mL"}
{"SMILES": "O=C(/C=C/c1ccccc1)[Se]c1ccccc1", "strain": "LAI", "method": "MTT", "value": "3.1 µM"}
{"SMILES": "CCOP(=O)(COc1ccc(C[C@H](NC(=O)O[C@H]2CO[C@H]3OCC[C@H]32)[C@H](O)CN(CC(C)C)S(=O)(=O)c2ccc(OC)cc2)cc1)OCC", "strain": "IIIB", "mutations": "8374-P62 GS-8374-resistant", "method": "ATP", "value": "0.07 µM"}
{"SMILES": "Nc1ccn([C@@H]2CS[C@H](CO)O2)c(=O)n1", "strain": "LAI", "method": "MTT", "value": "3.1 µM"}
{"SMILES": "O=C1N(c2ccccc2)c2ccccc2C1(CCc1cccnc1)CCc1cccnc1", "strain": "RF", "method": "plaque count", "value": "<10 µM"}
{"SMILES": "CC(C)(C)NC(=O)[C@@H]1C[C@@H]2CCCC[C@@H]2CN1C[C@@H](O)[C@H](Cc1ccccc1)NC(=O)[C@H](CC(N)=O)NC(=O)c1ccc2ccccc2n1", "strain": "LAV/LAI", "method": "cytopathic effect / MTT", "value": "0.015 µM"}
{"SMILES": "CCCCCCCCCCCCCCCCOCCCOP(=O)(O)COCCn1cnc2c(=O)[nH]c(N)nc21", "strain": "LAI", "method": "p24", "value": "0.0000074 µM"}
{"SMILES": "CC(C)OC(=O)OCOP(=O)(CO[C@H](C)Cn1cnc2c(N)ncnc21)OCOC(=O)OC(C)C", "strain": "IIIB", "method": "XTT", "value": "3.6 µM"}
{"SMILES": "COc1cc([C@@H]2c3cc4c(cc3[C@@H](O[C@@H]3O[C@@H]5CO[C@@H](C)O[C@H]5[C@H](O)[C@H]3O)[C@H]3COC(=O)[C@H]23)OCO4)cc(OC)c1O", "strain": "IIIB", "method": "XTT", "value": "0.06 µg/mL"}
{"SMILES": "O=C(O)c1cc(-c2ccc(/C=C3\\SC(=S)N(c4cccc(F)c4)C3=O)o2)ccc1Cl", "strain": "IIIB", "method": "p24", "value": "0.868 µM"}
{"SMILES": "COc1cc([C@@H]2c3cc4c(cc3[C@H](O)[C@H]3COC(=O)[C@H]23)OCO4)cc(OC)c1O", "strain": "IIIB", "method": "XTT", "value": ">0.0066 µg/mL"}
{"SMILES": "Nc1ccc(CC2(Cc3ccncc3)C(=O)N(c3ccccc3)c3ccccc32)cc1", "strain": "IIIB", "method": "cytopathic effect / XTT", "value": "21.5 µM"}
{"SMILES": "CCCCCCCCCCCCCCCCOCCCOP(=O)(O)CO[C@H](CO)Cn1cc(F)c(=O)[nH]c1=O", "strain": "LAI", "method": "p24", "value": ">100 µM"}
{"SMILES": "CC(C)CN(C[C@@H](O)[C@H](Cc1ccccc1)NC(=O)[C@@H](NC(=O)CNCc1cccc(F)c1)C(C)(C)C)S(=O)(=O)c1cccc(N)c1", "strain": "RF", "value": "<0.0039 µM"}
{"SMILES": "CCCCCCCCCCCCCCCCOCCCOP(=O)(O)CO[C@H](CO)Cn1cc(F)c(N)nc1=O", "strain": "LAI", "method": "p24", "value": "39 µM"}
{"SMILES": "Cc1ccnc2c1NC(=O)c1cccnc1N2C1CC1", "strain": "IIIB", "mutations": "Y181C", "method": "MTT", "value": ">15.9 µM"}
{"SMILES": "CN1CCCC(CCC2(CCC3CCCN(C)C3)C(=O)N(c3ccccc3)c3ccccc32)C1", "strain": "IIIB", "method": "cytopathic effect / XTT", "value": "3.8 µM"}
{"SMILES": "O=C(/C=C/C=C/c1ccc(O)c(O)c1)[Se]c1ccccc1", "strain": "LAI", "method": "MTT", "value": "6.9 µM"}
{"SMILES": "O=C1N(c2ccccc2)c2ccccc2C1(Cc1ccncc1)Cc1ccc([N+](=O)[O-])cc1", "strain": "IIIB", "method": "cytopathic effect / XTT", "value": "3.4 µM"}
{"SMILES": "CC(C)(O)[C@H](O)COc1c2occc2cc2ccc(=O)oc12", "strain": "NL4-3 Recombinant VSV-pseudotyped", "method": "luciferase", "value": "<50 µM"}
{"SMILES": "COc1cc([C@@H]2c3cc4c(cc3CC3COC(=O)C32)OCO4)cc(OC)c1OC", "strain": "IIIB", "method": "XTT", "value": ">0.01 µg/mL"}
{"SMILES": "CCOC(=O)C(C)OP(=O)(CO[C@@H]1C=C(F)[C@H](n2cnc3c(N)ncnc32)O1)Oc1ccccc1", "strain": "IIIB", "method": "luminescence", "value": ">2 µM"}

Again, the opening 6 rows:

| SMILES | strain | mutations | method | setting | value |
|---|---|---|---|---|---|
| CC(C)CN(C[C@@H](O)[C@H](Cc1ccccc1)NC(=O)O[C@H]1CCOC1)S(=O)(=O)c1ccc(N)cc1 | IIIB | - | p24 / ELISA | - | 0.0473 µM |
| CCCCCC[C@@H]1[C@H](O)[C@@H](O)[C@@H](Cc2ccccc2)N(Cc2cccc(C(=O)Nc3nc4ccccc4[nH]3)c2)C(=O)N1Cc1cccc(C(=O)Nc2nc3ccccc3[nH]2)c1 | RF | PR-I84V V82F | - | 3 d | <0.024 µM |
| N#Cc1ccc(Nc2nc(Oc3ccc(-c4ccc(C#N)cc4)cc3[N+](=O)[O-])c3sccc3n2)cc1 | IIIB | Y181C | MTT | - | 0.0551 µM |
| CCCCCCCCCCCCCCCCOCCCOP(=O)(O)COCCn1cnc2c(N)nc(N)nc21 | LAI | - | p24 | - | 0.000016 µM |
| CC(C)=CCOc1c2occc2cc2ccc(=O)oc12 | NL4-3 Recombinant | - | luciferase | - | <25 µM |
| C[C@H](Cn1cnc2c(N)ncnc21)OCP(=O)(O)O | LAI | - | ELISA | - | 0.68 µM |